Source: article PMC5681660, “Reduced hepatitis B and D viral entry using clinically applied drugs as novel inhibitors of the bile acid transporter NTCP” (Scientific Reports, 2017)
Like-named read-outs stand apart in the source and are kept apart here.

Key:
[1] = biological target: T1, human NTCP (Homo sapiens, UniProt Q14973); experiment: Screening fluorescent competitive Myrcludex B-FITC binding assay (96-well, 10 µM drug)
T1 sequence (Q14973 1-349): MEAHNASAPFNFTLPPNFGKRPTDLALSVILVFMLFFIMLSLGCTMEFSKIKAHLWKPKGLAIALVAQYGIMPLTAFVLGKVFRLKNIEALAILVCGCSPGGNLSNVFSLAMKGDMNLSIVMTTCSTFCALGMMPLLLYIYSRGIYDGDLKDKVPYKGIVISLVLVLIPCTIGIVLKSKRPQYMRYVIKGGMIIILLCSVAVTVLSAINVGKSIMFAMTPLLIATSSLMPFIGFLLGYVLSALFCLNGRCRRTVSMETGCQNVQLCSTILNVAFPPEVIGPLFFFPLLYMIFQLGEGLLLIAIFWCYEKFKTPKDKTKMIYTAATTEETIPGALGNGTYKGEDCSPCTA

[2] = biological target: T1, human NTCP; experiment: Screening taurocholate uptake assay (96-well, [14C]taurocholate, 10 µM drug)
[3] = screen, Myrcludex B-FITC binding
[4] = screening Myrcludex B-FITC binding
[5] = screening Myrcludex B-FITC binding, Prestwick library
[6] = screening taurocholate uptake, 10 µM drug, Prestwick library
[7] = Prestwick library screen, Myrcludex B-FITC binding

In the case of Eburnamonine (-), the “%NTCP binding” value [1, 3] is reported as 85.5398% and the “%NTCP activity” value ([2]; screen, 10 µM drug, [14C]taurocholate uptake) is reported as 97.5753%.
Bacitracin was tested, and the “%NTCP activity” value [2] was 51.4928%.
In the case of Colistin sulfate, the B-score binding assay [1, 4] is reported as 0.936, the “%NTCP binding” value [1, 5] is reported as 84.9553% and the “%NTCP activity” value [2, 6] is reported as 21.2205%.
Cyanocobalamin was tested, and the “%NTCP binding” value [1, 7] was 68.6256% and the “%NTCP activity” value [2] was 41.5146%.
For (S)-(-)-Cycloserine, the B-score binding assay [1, 4] was -3.125.
Deoxycorticosterone was tested, and the “%NTCP binding” value [1, 3] was 83.6373% and the “%NTCP activity” value [2] was 53.4598%.
With “R(-) Apomorphine hydrochloride hemihydrate” the “%NTCP binding” value [1, 5] was 93.5426% and the “%NTCP activity” value [2, 6] was 74.8711%.
Spiramycin was tested, and the “%NTCP binding” value [1, 7] was 126.924% and the “%NTCP activity” value ([2]; Prestwick library screen, 10 µM drug, [14C]taurocholate uptake) was 73.3638%.
With Verteporfin the B-score binding assay [1, 4] was -8.361.
In the case of (-) -Levobunolol hydrochloride, the “%NTCP binding” value [1, 7] is reported as 98.4794%.
In the case of Tyloxapol, the “%NTCP binding” value [1, 3] is reported as 93.207% and the “%NTCP activity” value [2] is reported as 53.7408%.
With Norgestrel-(-)-D the “%NTCP binding” value [1, 7] was 82.4714% and the “%NTCP activity” value [2] was 89.1345%.
